# Data from patent publication US20260226110A1.
# Target: recombinant chimeric antigen DAM (A35-M1-A35-M1) (monkeypox virus isolate MPXV_USA_2022_MA001)
substance,measurement,value
neutralizing antibody 7D11,Kd,1.06 nM
same,koff,0.000908 s⁻¹
same,kon,857000 M⁻¹ s⁻¹
